Measurements published in patent publication US20240122867A1, “CORONAL PROTEIN-COATED NANOPARTICLES AND USES THEREOF” (UNIVERSITY OF CENTRAL FLORIDA RESEARCH FOUNDATION, INC., priority 2021, published 2024).

Test system: coronal proteins on NPs
Parameters: species or system mouse
Conditions: for V5 Sera_Nanoparticles Quantitative Value (Normalized Total Spectra): HBPE-NPs incubated 1 h with IAV day 5 (V5) mouse sera, 20:1 NP:sera, centrifuged and washed; for V5 Sera Alone (Control) Quantitative Value (Normalized Total Spectra): IAV day 5 (V5) mouse sera alone, no NPs (sera-only control)

Molecule	V5 Sera_Nanoparticles Quantitative Value (Normalized Total Spectra)	V5 Sera Alone (Control) Quantitative Value (Normalized Total Spectra)
Keratin, type II cytoskeletal 5 (protein, UniProt Q922U2 1-580, looked up) Keratin, type II cytoskeletal …: MSRQSSVSFRSGGSRSFSAASAITPSVSRTSFSSVSRSGGGGGGRISLGGACGAGGYGSRSLYNVGGSKRISYSSGGGSFRNQFGAGGFGFGGGAGSGFGFGGGAGSGFGFGGGAGFGGGYGGAGFPVCPPGGIQEVTVNQNLLTPLNLQIDPTIQRVRTEEREQIKTLNNKFASFIDKVRFLEQQNKVLDTKWALLQEQGTKTIKQNLDPLFEQYINNLRRQLDGVLGERGRLDSELRNMQDLVEDYKNKYEDEINKRTTAENEFVMLKKDVDAAYMNKVELEARVDALMDEINFMKMFFDAELSQMQTHVSDTSVVLSMDNNRSLDLDSIIAEVKAQYEDIANRSRTEAESWYQTKYEELQQTAGRHGDDLRNTKHEISEMNRMIQRLRSEIDNVKKQCANLQNAIAEAEQRGELALKDARNKLTELEEALQKAKQDMARLLREYQELMNTKLALDVEIATYRKLLEGEECRLSGEGVGPVNISVVTNSVSSGYGGGSSIGVGSGFGGGLGSGFAGGLGPRFTRGGGGLGLGSGLSVGGSGFSAGSSQGGMSFGSGGGSGSSVKFVSTTSSSRRSFKS	5.4396	10.178
Apolipoprotein D (protein, UniProt P51910 21-189, looked up) Apolipoprotein D: QNFHLGKCPSPPVQENFDVKKYLGRWYEIEKIPASFEKGNCIQANYSLMENGNIEVLNKELSPDGTMNQVKGEAKQSNVSEPAKLEVQFFPLMPPAPYWILATDYENYALVYSCTTFFWLFHVDFVWILGRNPYLPPETITYLKDILTSNGIDIEKMTTTDQANCPDFL	5.4396	15.729
Ceruloplasmin (protein, UniProt Q61147 20-1061, looked up) Ceruloplasmin: RDKHYFIGITEAVWDYASGTEEKKLISVDTEQSNFYLQNGPDRIGRKYKKALYFEYTDGTFSKTIDKPAWLGFLGPVIKAEVEDKVYVHLKNLASRIYTFHAHGVTYTKEYEGAVYPDNTTDFQRADDKVLPGQQYVYVLHANEPSPGEGDSNCVTRIYHSHVDAPKDIASGLIGPLILCKKGSLYKEKEKNIDQEFVLMFSVVDENLSWYLEDNIKTFCSEPEKVDKDNEDFQESNRMYSINGYTFGSLPGLSMCAADRVKWYLFGMGNEVDVHSAFFHGQALTSRNYQTDIINLFPATLIDAYMVAQNPGVWMLSCQNLNHLKAGLQAFFQVRDCNKPSPEDNIQDRHVRHYYIAAEEVIWNYAPSGTDIFTGENLTALESDSRVFFEQGATRIGGSYKKMAYREYTDGSFTNRKQRGPDEEHLGILGPVIWAEVGDTIKVTFHNKGQHPLSIQPMGVSFTAENEGTYYGPPGRSSQQAASHVAPKETFTYEWTVPKEMGPTYADPVCLSKMYYSGVDPTKDIFTGLIGPMKICKKGSLLADGRQKDVDKEFYLFPTVFDENESLLLDDNIRMFTTAPDQVDKEDEDFQESNKMHSMNGFMYGNQPGLNMCLGESIVWYLFSAGNEADVHGIYFSGNTYLSKGERRDTANLFPHKSLTLLMNPDTKGTFDVECLTTDHYTGGMKQKYTVNQCQRQFEDFTVYLGERTYYVAAVEVEWDYSPSRAWEKELHHLQEQNVSNVFLDKEEFFIGSKYKKVVYRQFTDSSFREQVKRRAEDEHLGILGPPIHANVGDKVKVVFKNMATRPYSIHAHGVKTESSTVVPTLPGEVRTYTWQIPERSGAGREDSACIPWAYYSTVDRVKDLYSGLIGPLIVCRKSYVKVFSPKKKMEFFLLFLVFDENESWYLDDNIKTYSEHPEKVNKDNEEFLESNKMHAINGKMFGNLQGLTMHVKDEVNWYVMGMGNEIDLHTVHFHGHSFQYKHRGVYSSDVFDLFPGTYQTLEMFPQTPGTWLLHCHVTDHVHAGMATTYTVLPVEQETKSG	87.034	45.336
Apolipoprotein C-IV (protein, UniProt P34928 27-88, looked up) Apolipoprotein C-I: APDLSGTLESIPDKLKEFGNTLEDKARAAIEHIKQKEILTKTRAWFSEAFGKVKEKLKTTFS	5.4396	12.028
